Reference: patent US8153397B2 (priority 1993, dated 2012)

Target: BoNT/A LC (Clostridium botulinum, UniProt P0DPI0)
Test: Proteolysis experiments: truncation and fragmentation of BoNT/A LC (SDS-PAGE)
Format: biochemical
Conditions: incubation at 4° C., TPEN 5 mM, EDTA 10 mM, peptide 1 mM, ZnCl2 0.25 mM

Substance: ZnCl2
- effect on truncation and fragmentation of the LC: the rate of fragmentation was greatly increased
